In patent US20080020973A1 (priority 2004, published 2008):

Key:
Format in all cases: biochemical
[1] = molecular target: human topoisomerase type IB (hTopo) (Homo sapiens, UniProt P11387); experiment: Plasmid supercoil relaxation (SC release) assay, hTopo; conditions: [I]human/[I]vaccinia giving similar inhibition in the supercoil release assay
[2] = molecular target: T1, vaccinia DNA topoisomerase IB (vTopo) (Vaccinia virus, UniProt P68698); experiment: Molecular beacon RNase assay (18U-FAM/18-DAB), high-throughput inhibitor screen; conditions: @0.1 μM
[3] = molecular target: T1, vaccinia DNA topoisomerase IB (vTopo); experiment: Plasmid supercoil relaxation (SC release) assay, vTopo; conditions: vaccinia enzyme, @0.006 μM

`O=[As](O)(O)c1ccc(-c2cccc([As](=O)(O)O)c2)cc1` was tested, and the Selectivity [1] was 3330, the “% Inhibition (RNAse HTS)” value [2] was 100% @0.1 μM and the “% Inhibition (plasmid SC release assay)” value [3] was 50% @0.006 μM.
